# PubChem BioAssay AID1259414, Drosophila RNAi Screening Center – 2018
# Assay: 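Fly genes that alter Wolbachia amount inside host cells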 (primary screen)
# System: Drosophila JW18 cells infected with Wolbachia
# Reagents: long dsRNA against Drosophila genes, 0.25 µg dsRNA per well of a 384-well plate
# Time to read-out: 5 days
# Challenge: cells persistently infected with Wolbachia before knock-down; no added drug
# Measurement: 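Imaged fluorescence in situ signal for Wolbachia 23S rRNA per DAPI-counted host cell, given as a robust z-score within each plate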
# Scale: Wolbachia per cell robust z: higher = more Wolbachia per host cell than the plate typical
# Hit rule: 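Active if absolute robust z reaches 1.5 in two or more of three replicates, leaving out multi- or no-target dsRNAs, genes unexpressed in JW18 and A1 wells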
# The screen tested about 24,000 reagents; this is a random part of those with a known target gene and a result. Of all reagents, about 1,210 (5%) are marked active. 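Inactive calls also include excluded dsRNAs with several or no targets, genes unexpressed in JW18, and well A1, regardless of score.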 Reagents against one gene are numbered here.
gene knocked down,dsRNA no.,"Wolbachia per cell robust z, rep 1","Wolbachia per cell robust z, rep 2","Wolbachia per cell robust z, rep 3",activity call
CG17571,1,-0.052,-0.237,-0.634,inactive
CG17571,2,0.448,0.0858,-0.0595,inactive
CG17571,3,0.329,0.116,-0.195,inactive
Edg91,1,-4.4,1.15,1.03,inactive
Hex-t2,1,-0.678,-2.03,-1.41,inactive
Hex-t2,2,0.0452,1.16,0.715,inactive
CG4546,1,0.604,0.844,1.06,inactive
CG4546,2,0.375,0.243,0.181,inactive
CG4546,3,-0.793,1.11,0.764,inactive
Sin3A,1,1.6,-0.464,1.3,inactive
Sin3A,2,-0.697,-1.02,-0.734,inactive
Karybeta3,1,0.0379,-1.13,0.467,inactive
mtd,1,0.512,-0.0803,0.821,inactive
mtd,2,-0.0124,1.31,-4,inactive
mtd,3,0.316,-1.19,0.634,inactive
mtd,4,-1.12,0.549,-1.08,inactive
mtd,5,0.723,0.472,-1.68,inactive
CG8468,1,0.0236,-0.276,0.016,inactive
CG8468,2,0.631,0.312,-0.772,inactive
CG13066,1,-5.83,-3.47,-2.07,inactive
CG13066,2,-1.62,-2.2,0.719,inactive
CG31195,1,0.759,0.757,0.00385,inactive
oys,1,1.11,-0.0186,-8.05,inactive
oys,2,0.284,0.0211,0.649,inactive
oys,3,-0.566,1.31,-0.399,inactive
FASN2,1,-1.08,-1.15,-0.575,inactive
FASN2,2,-0.21,-0.528,-1.78,inactive
RpS6,1,6.05,3.15,4.05,active
RpS6,2,4.31,6.11,7.01,active
CG8298,1,0.404,-1.18,-0.751,inactive
RPA2,1,-3.19,-0.596,0.564,inactive
RPA2,2,0.148,-0.45,1.28,inactive
CG13594,1,0.814,0.321,-2.39,inactive
CG13594,2,-2.42,-0.521,-0.0169,inactive
qjt,1,0.0302,0.724,-1.71,inactive
qjt,2,0.627,1.32,0.198,inactive
Eglp1,1,-6.1,1.01,-4.52,inactive
Gclm,1,1.37,0.0707,1.07,inactive
Gclm,2,0.558,-0.646,0.185,inactive
Cpr49Af,1,-0.621,-0.0919,-0.571,inactive
Cpr49Af,2,-1.8,0.41,1.35,inactive
CG5225,1,1.38,1.01,0.645,inactive
alpha-Est6,1,0.309,0.257,-0.983,inactive
Wnt10,1,0.774,0.55,-1.41,inactive
Wnt10,2,1.25,0.471,1.05,inactive
STUB1,1,0.659,-6.23,0.188,inactive
